From US20070071764A1 come the findings set out here.

Assay [1] addresses human Kv1.3 channel (human) (UniProt P22001). Kind of assay: cell-based or functional assay.
The target of assay [2] is human Kv1.1 channel (human) (UniProt Q09470). Kind of assay: cell-based or functional assay.

As to “CHO-derived Fc-L10-ShK[1-35] R1Q (Fc fusion)”, the Kv1.3 IC50 by IWQ (IonWorks planar patch clamp, CHO/Kv1.3 cells) in assay [1] amounted to 2.2 nM.
Regarding Fc-L10-OSK1[E16K,K20D] (Fc fusion), in assay [1], the fold less potent than synthetic OSK1 (IC50 of Kv1.3 current block) came out at 6 fold; the hKv1.3: IC50 (whole-cell patch clamp, HEK293) is 0.248 nM; the selectivity ratio hKv1.1/hKv1.3 (IC50 on hKv1.1 over IC50 on hKv1.3) came out at 403.
Fc-L10-OSK1[K7S,E16K,K20D] (Fc fusion): in assay [2], the hKv1.1: IC50 (electrophysiology, HEK293) turned out to be 10000 pM. In addition, in assay [1], the fold less potent than synthetic OSK1 (IC50 of Kv1.3 current block) was 21 fold; the hKv1.3: IC50 (whole-cell patch clamp, HEK293) was 0.812 nM; the selectivity ratio hKv1.1/hKv1.3 (IC50 on hKv1.1 over IC50 on hKv1.3) worked out at 12.
With Fc-L10-OSK1[K7S] (Fc fusion), the hKv1.1: IC50 (electrophysiology, HEK293) in assay [2] was 100000 pM. In assay [1], the hKv1.3: IC50 (whole-cell patch clamp, HEK293) is 0.372 nM and the selectivity ratio hKv1.1/hKv1.3 (IC50 on hKv1.1 over IC50 on hKv1.3) is 269.
